In ChEMBL document CHEMBL3885881, “DrugMatrix”:

Species: Rattus norvegicus
Assay: DrugMatrix - Regimen: Daily Repeat
Format: toxicity, organism-based, Sprague-Dawley
Parameters: regimen Daily Repeat, gender Male, age 6-8 weeks
Conditions: in vivo, po, 120 h, tissue Blood, route oral GAVAGE, dose level Low, time 5 day

Substance | MONOCYTE (24 mg/kg, vehicle 100 % WATER) [%] | MONOCYTE ([…], dose 6.3 mg/Kg) [%]
COLISTIN | 2.33 | –
ZIRCONIUM(IV) CHLORIDE | – | 2.33
